Pooled drug test results. Numbers come from NIAID ChemDB, via PubChem.

Shared fields: whole-cell or culture tests; organism: HIV-1; cell line: MT-4; measure: EC50

ECn: concentration that inhibits the pathogen or its effect by n%.

SMILES	strain or isolate	mutations	method	result
O=C1Nc2ccc(Cl)cc2[C@@](/C=C/C2CC2)(C(F)(F)F)N1	-	RT-K103N	p24	<0.027 µM
COc1cc2c(cc1OC)C1=NOC(c3c(Cl)cccc3Cl)C1C2	IIIB	-	MTT	>53.2 µM
Cc1cc(/C=C/C#N)cc(C)c1Oc1ccnc(S(=O)(=O)CC(=O)NCc2ccc(F)cc2)n1	IIIB	-	MTT	1.854 µM
COc1cc2c(cc1OC)C1=NOC(c3cccs3)C1C2	IIIB	-	MTT	>11.73 µM
Cc1ncnc(C)c1OCC(=O)N[C@@H](Cc1ccccc1)[C@H](O)CN(CC(C)C)S(=O)(=O)c1ccc2nc(N)oc2c1	LAI WT	-	cytopathic effect / MTT	0.0589 µM
C=C(C)[C@]12C[C@@H](C)[C@]34OC5(CCCCCCC[C@@H](C)[C@@H]([C@H](C)C(=O)OC)[C@@H]3C(=O)[C@H](O)[C@@]3(CO)O[C@H]3[C@H]4[C@H]1O5)O2	NL4-3	-	luciferase	1.17 µM
N#Cc1cc(Cl)cc(Oc2c(Br)ccc(CC(=O)Nc3ccc(S(N)(=O)=O)cc3Cl)c2F)c1	-	V106A/F227C	-	0.173 µM
O=C1Nc2ccc(Cl)c(O)c2[C@@](C#Cc2ccccc2)(C(F)(F)F)N1	-	RT-K103N	p24	<0.03 µM
CCOCn1c(Cc2cc(C(F)(F)F)cc(C(F)(F)F)c2)c(C(C)C)c(=O)[nH]c1=O	IIIB	-	MTT	0.9 µM
Cc1cc(-c2ccc(C#N)cc2)cc(C)c1Oc1ccnc(S(=O)(=O)CC(=O)Nc2ccc(F)cc2)n1	IIIB	F227L V106A	MTT	4.102 µM
C=CCOCn1c(Cc2cc(C(F)(F)F)cc(C(F)(F)F)c2)c(C(C)C)c(=O)[nH]c1=O	EFV-resistant (K103R V179D P225H)	-	MTT	>100 µM
Cc1cc(-c2ccc(C#N)cc2)cc(C)c1Oc1ccnc(S(=O)(=O)C(C)C(=O)Nc2ccc(Cl)cc2)n1	IIIB	Y188L	MTT	1.002 µM
COc1cc2c(cc1OC)C1=NOC(c3ccccc3)C1C2	IIIB	-	MTT	>12.9 µM
CCC(=O)c1ccc(F)c([C@H]2C[C@H]2NC(=O)Nc2ccc(C#N)cn2)c1O	IIIB	RT-Y181C	cytopathic effect / XTT	0.02 µM
Cc1nc(N)nc(C)c1OCC(=O)N[C@@H](Cc1ccccc1)[C@H](O)CN(CC(C)C)S(=O)(=O)c1ccc2nc(N)oc2c1	LAI WT	-	cytopathic effect / MTT	0.0389 µM
Cc1cc(-c2ccc(C#N)cc2)cc(C)c1Oc1ccnc(S(=O)(=O)CC(=O)Nc2ccc(Cl)cc2)n1	IIIB	Y181C	MTT	0.275 µM
CC(C)CN(C[C@@H](O)[C@H](Cc1ccccc1)NC(=O)OCc1cnc[nH]1)S(=O)(=O)c1ccc2nc(N)oc2c1	LAI WT	-	cytopathic effect / MTT	1.349 µM
O=C1Nc2ccc(Cl)c(O)c2[C@@](C#CC2CC2)(C(F)(F)F)N1	-	RT-K103N	p24	<0.028 µM
C=C(C)[C@]12C[C@@H](C)[C@]34OC5(CCCCCCC[C@@H](C)[C@@H]([C@H](C)C(=O)O)[C@@H]3C(=O)[C@H](O)[C@@]3(CO)O[C@H]3[C@H]4[C@H]1O5)O2	NL4-3	-	luciferase	9.34 µM
Cc1cc(-c2ccc(C#N)cc2)cc(C)c1Oc1ccnc(S(=O)(=O)C(C)C(=O)Nc2ccc(C#N)cc2)n1	IIIB	F227L V106A	MTT	1.303 µM
COc1cc2c(cc1OC)C1=NOC(c3ccco3)C1C2	IIIB	-	MTT	>10.97 µM
CC1OC(OCC2OC(Oc3c(-c4cc(O)c(O)c(O)c4)oc4cc(O)cc(O)c4c3=O)C(O)C(O)C2O)C(O)C(O)C1O	IIIB	-	p24 / ELISA	45 µM
C=C(C)COCn1c(Cc2cc(F)ccc2F)c(CC)c(=O)[nH]c1=O	A17	K103N + Y181C	MTT	>56 µM
Cc1c(N)cccc1C(=O)N[C@@H](Cc1ccccc1)[C@H](O)CN(CC(C)C)S(=O)(=O)c1ccc2nc(N)oc2c1	LAI WT	-	cytopathic effect / MTT	0.0537 µM
Cc1cc(C#N)cc(C)c1Oc1ccnc(S(=O)(=O)CC(=O)Nc2ccc(C#N)cc2)n1	IIIB	L100I	MTT	0.067 µM
COc1c(Cl)ccc2c1[C@@](C#Cc1cccnc1)(C(F)(F)F)NC(=O)N2	-	RT-K103N	p24	<0.147 µM
CCC(=O)c1ccc(F)c([C@H]2C[C@H]2NC(=O)Nc2ccc(Br)cn2)c1O	IIIB	RT-Y181C	cytopathic effect / XTT	0.1 µM
C=CCOCn1c(Cc2cc(C(F)(F)F)cc(C(F)(F)F)c2)c(CC)c(=O)[nH]c1=O	N119 (Y181C)	-	MTT	>100 µM
Cc1cncc(C)c1OCCOC(=O)N[C@@H](Cc1ccccc1)[C@H](O)CN(CC(C)C)S(=O)(=O)c1ccc2nc(N)oc2c1	LAI WT	-	cytopathic effect / MTT	0.5248 µM
Cc1cc(-c2ccc(C#N)cc2)cc(C)c1Oc1ccnc(S(=O)(=O)CC(=O)Nc2ccc(Br)cc2)n1	IIIB	-	MTT	0.007 µM
CNc1nc2ccc(S(=O)(=O)N(CC(C)C)C[C@@H](O)[C@H](Cc3ccccc3)NC(=O)OCc3cncs3)cc2o1	LAI WT	-	cytopathic effect / MTT	0.0105 µM
Cc1cc(/C=C/C#N)cc(C)c1Oc1ccnc(S(=O)(=O)CC(=O)Nc2ccc(Cl)cc2)n1	IIIB	F227L V106A	MTT	0.76 µM

A second listing of 4 rows from above:

| SMILES | strain or isolate | mutations | method | result |
|---|---|---|---|---|
| Cc1cncc(C)c1OCCOC(=O)N[C@@H](Cc1ccccc1)[C@H](O)CN(CC(C)C)S(=O)(=O)c1ccc2nc(N)oc2c1 | LAI WT | - | cytopathic effect / MTT | 0.5248 µM |
| CNc1nc2ccc(S(=O)(=O)N(CC(C)C)C[C@@H](O)[C@H](Cc3ccccc3)NC(=O)OCc3cncs3)cc2o1 | LAI WT | - | cytopathic effect / MTT | 0.0105 µM |
| CC1OC(OCC2OC(Oc3c(-c4cc(O)c(O)c(O)c4)oc4cc(O)cc(O)c4c3=O)C(O)C(O)C2O)C(O)C(O)C1O | IIIB | - | p24 / ELISA | 45 µM |
| CC(C)CN(C[C@@H](O)[C@H](Cc1ccccc1)NC(=O)OCc1cnc[nH]1)S(=O)(=O)c1ccc2nc(N)oc2c1 | LAI WT | - | cytopathic effect / MTT | 1.349 µM |

An empty or dashed field is not shown. Conditions beyond the fields shown may differ between rows.